# Test results as given in patent EP0032748B1, “Thiophene derivatives” (UBE INDUSTRIES, LTD., priority 1980, dated 1981).
# Tested on: Pellicularia sasakii
# Details: Table 4; spray liquid 65 ppm; paddy rice sheath blight; lesion length 4 days after inoculation
substance,measurement,value
Ammonium iron methanearsonate,Control value,90%
